PSTVd loop 6 mutant pool in Nicotiana benthamiana

The measurements come from Wu et al. 2024 (doi:10.1371/journal.ppat.1012142).

PSTVd intermediate strain, loop 6: wild type UGACCGCGAG, pool pattern UNNNCGNNNG; upper and lower strand joined, each 5' to 3', the first 5 letters being the upper strand, closing pairs included.

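A pool of all variants was put on leaves of three Nicotiana benthamiana plants. Samples came from the inoculated region at 5 days, the leaf margin at 10 and upper systemic leaves at 12.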

Numbers give reads per thousand; 0 = not seen among the reads, higher = more abundant.
Each site shows the three plants.
"Pool" is the share in the plasmid pool used as inoculum, on the same scale.
The inoculated region was read from the minus strand, the other sites from the plus strand.
IR is the inoculated region, LM the leaf margin, Sys the systemic leaves.

| sequence | pool | IR | LM | Sys |
|---|---|---|---|---|
| UUCCCGGUGG | 0.248 | 0.0695 0.0898 0.0553 | 0 0.0252 0 | 0 0 0 |
| UUCCCGGUUG | 0.275 | 0.191 0.0539 0.0922 | 0 0 0 | 0 0 0 |
| UUCCCGUAAG | 0.0784 | 0.104 0.0359 0.0922 | 0 0 0.0232 | 0 0 0 |
| UUCCCGUACG | 0.131 | 0.174 0.126 0.0922 | 0.0276 0 0.0232 | 0 0 0 |
| UUCCCGUAGG | 0.183 | 0.0348 0.108 0.0922 | 0 0 0 | 0 0 0 |
| UUCCCGUAUG | 0.301 | 0.104 0.0719 0.0922 | 0.248 0 0 | 0 0 0 |
| UUCCCGUCAG | 0.209 | 0.104 0.0898 0.0922 | 0 0 0 | 0 0 0 |
| UUCCCGUCCG | 0.196 | 0.104 0.0719 0.0369 | 0.0276 0 0 | 0 0 0 |
| UUCCCGUCGG | 0.275 | 0.139 0.0898 0.148 | 0 0.0252 0 | 0 0 0 |
| UUCCCGUCUG | 0.314 | 0.104 0.0898 0.0738 | 0 0 0 | 0 0 0 |
| UUCCCGUGAG | 0.144 | 0.122 0.0898 0.0922 | 0 0 0.0232 | 0 0 0 |
| UUCCCGUGCG | 0.222 | 0.174 0.0719 0.0553 | 0.0552 0 0 | 0 0 0 |
| UUCCCGUGGG | 0.183 | 0.122 0.0898 0.0738 | 0 0.0252 0.0464 | 0 0 0 |
| UUCCCGUGUG | 0.405 | 0.122 0.0719 0.0922 | 0.0552 0 0 | 0 0 0 |
| UUCCCGUUAG | 0.301 | 0.104 0.0898 0.0922 | 0 0 0 | 0 0 0 |
| UUCCCGUUCG | 0.183 | 0.0521 0.0359 0.0922 | 0.0276 0 0 | 0 0 0 |
| UUCCCGUUGG | 0.418 | 0.0695 0.0180 0.0553 | 0 0.454 0 | 0 0 0 |
| UUCCCGUUUG | 0.301 | 0.122 0.144 0.129 | 0 0 0 | 0 0 0.0205 |
| UUCCCUGUCC | 0.0131 | 0 0 0 | 0 0 0 | 0 0 0 |
| UUCCUGAGCG | 0.0131 | 0 0 0 | 0 0 0 | 0 0 0 |
| UUCGCCUUGG | 0.0131 | 0 0 0 | 0 0 0 | 0 0 0 |
| UUCGCGAAAG | 0.222 | 0.139 0.162 0.111 | 0.0276 0 0 | 0 0 0 |
| UUCGCGAACG | 0.144 | 0.0869 0.0719 0.111 | 0 0 0.0464 | 0 0 0 |
| UUCGCGAAGG | 0.183 | 0.0695 0.0359 0.0922 | 0 0 0 | 0 0 0 |
| UUCGCGAAUG | 0.510 | 0.174 0.0719 0.0922 | 0 0 0 | 0 0 0 |
| UUCGCGACAG | 0.301 | 0.0695 0.0719 0.129 | 0 0 0.0232 | 0 0 0.0205 |
| UUCGCGACCG | 0.301 | 0.139 0.0719 0.0369 | 0.0276 0 0 | 0 0 0 |
| UUCGCGACGG | 0.353 | 0.156 0.126 0.0738 | 0 0 0 | 0 0 0 |
| UUCGCGACUG | 0.222 | 0.122 0.108 0.0738 | 0 0 0 | 0 0 0 |
| UUCGCGAGAG | 0.144 | 0.104 0.108 0.0184 | 0.0276 0.126 0.0464 | 0 0 0 |
| UUCGCGAGCG | 0.353 | 0.0695 0.0719 0.0553 | 0 0 0 | 0 0 0.0205 |
| UUCGCGAGGG | 0.157 | 0.0869 0.144 0.0369 | 0 0 0 | 0 0 0 |
| UUCGCGAGUG | 0.301 | 0.0521 0.126 0.111 | 0 0 0 | 0 0 0 |
| UUCGCGAUAG | 0.340 | 0.122 0.162 0.0369 | 0 0 0.162 | 0 0.0202 0 |
| UUCGCGAUCG | 0.248 | 0.0869 0.0898 0.129 | 0.0276 0 0 | 0 0 0 |
| UUCGCGAUGG | 0.392 | 0.0695 0.108 0.0922 | 0 0.0252 0 | 0 0 0 |
| UUCGCGAUUG | 0.353 | 0.122 0.126 0.0553 | 0 0 0 | 0 0 0 |
| UUCGCGCAAG | 0.157 | 0.0869 0.162 0.0738 | 0 0 0 | 0 0 0 |
| UUCGCGCACG | 0.209 | 0.0869 0.0539 0 | 0.0552 0 0 | 0 0 0 |
| UUCGCGCAGG | 0.301 | 0.104 0.0539 0.148 | 0.0276 0 0 | 0 0 0 |
| UUCGCGCAUG | 0.170 | 0.156 0.126 0.166 | 0.0276 0 0 | 0 0 0 |
| UUCGCGCCAG | 0.196 | 0.0869 0.0898 0.0553 | 0 0 0.0464 | 0 0 0 |
| UUCGCGCCCG | 0.353 | 0.139 0.0719 0.0922 | 0 0 0 | 0 0 0 |
| UUCGCGCCGG | 0.235 | 0.122 0.0898 0.129 | 0 0 0.0232 | 0 0 0 |
| UUCGCGCCUG | 0.183 | 0.104 0.0359 0.0922 | 0 0.101 0 | 0 0 0 |
| UUCGCGCGAG | 0.340 | 0.156 0.162 0.129 | 0.0828 1.34 0 | 0.0359 0.0606 0.0615 |
| UUCGCGCGAU | 0.0131 | 0 0.162 0.0738 | 0 0 0 | 0 0 0 |
| UUCGCGCGCG | 0.183 | 0.0695 0.126 0.0738 | 0 0 0 | 0 0 0 |
| UUCGCGCGGG | 0.706 | 0.209 0.126 0.148 | 0 0.555 0 | 0 0.0202 0 |
| UUCGCGCGUG | 0.235 | 0.139 0.0539 0.0553 | 0.0276 0.101 0 | 0 0 0 |
| UUCGCGCUAG | 0.131 | 0.139 0.0180 0.0922 | 0 0 0.0464 | 0 0 0 |
| UUCGCGCUCG | 0.118 | 0.139 0.144 0.0553 | 0.0276 0 0 | 0 0 0 |
| UUCGCGCUGG | 0.157 | 0.104 0.0719 0.0369 | 0 0 0 | 0 0 0 |
| UUCGCGCUUG | 0.340 | 0.0348 0.144 0.0738 | 0 0 0 | 0 0 0 |
| UUCGCGGAAG | 0.118 | 0.104 0.0539 0.0553 | 0 0 0.0232 | 0 0 0 |

Samples held 36,220 to 57,551 reads, so the smallest values rest on one or two reads.
For reference, wild type rose from 20.7 per thousand in the pool to 195, 198, 203 (inoculated region), 629, 591, 734 (leaf margin) and 942, 870, 868 (systemic leaves).
Sequences that differ at fixed positions probably stem from PCR or sequencing errors, and defective variants can be carried along by functional ones.